Assay results published in PMC5862516 (PLoS Neglected Tropical Diseases, 2018).

test system: SOSV minigenome; details: CC50 divided by EC50

SMILES	Minigenome Screen SI
Nc1ccn([C@@H]2O[C@H](CO)[C@@H](O)[C@H]2F)c(=O)n1 [2′-deoxy-2′-fluorocytidine]	> 38
O=c1[nH]c(=O)n([C@@H]2O[C@H](CO)[C@@H](O)[C@H]2O)cc1F [5-fluorouridine]	> 172
O=c1cnn([C@@H]2O[C@H](CO)[C@@H](O)[C@H]2O)c(=O)[nH]1 [6-azauridine]	> 9
COc1c(C)c2c(c(O)c1C/C=C(\C)CCC(=O)O)C(=O)OC2 [Mycophenolic acid]	7
